PMC9312377
Values joined by “and” are separate entries in the source; they are usually repeats but may differ in a detail not shown here. Equal entries are not always repeated.

Assays:
[1] = tested on: recombinant A(H3N2) PAN E23K; experiment: Modified thermofluor assay, BXA-rPAN thermal stabilization
[2] = biological target: recombinant A(H1N1)pdm09 PAN E23K+I38T (Influenza A virus, UniProt C3W5S0, DEL51-57/DEL61-72/E23K/E59G/I38T); experiment: as above; details: for SYPRO Orange signal: 37uM BXA

O=C1c2c(O)c(=O)ccn2N([C@@H]2c3ccccc3SCc3c2ccc(F)c3F)[C@@H]2COCCN12
Tm (°C) with BXA ([1]; A(H3N2) PAN E23K 2 μM, BXA 37 μM): 73 °C and 73.0 ± 0.1 °C
ΔTm (°C) ([1]; A(H3N2) PAN E23K, DMSO vs BXA 37 μM): 24.0 ± 0.4 °C
SYPRO Orange signal ([2]; 30 °C): 5872.56 RFU and 7879.31 RFU and 8380.31 RFU
SYPRO Orange signal ([2]; 31 °C): 6195.71 RFU and 8264.42 RFU and 8953.73 RFU
SYPRO Orange signal ([2]; 32 °C): 6505.91 RFU and 8318.23 RFU and 9166.51 RFU
SYPRO Orange signal ([2]; 33 °C): 6203.65 RFU and 8455.22 RFU and 8543.86 RFU
SYPRO Orange signal ([2]; 34 °C): 6790.53 RFU and 8433.43 RFU and 8964.02 RFU
SYPRO Orange signal ([2]; 35 °C): 6739.42 RFU and 7562.44 RFU and 8463.87 RFU
SYPRO Orange signal ([2]; 36 °C): 7390.66 RFU and 7591.98 RFU and 9168.48 RFU
SYPRO Orange signal ([2]; 37 °C): 7300.62 RFU and 7900.52 RFU and 9553.25 RFU
SYPRO Orange signal ([2]; 38 °C): 7452.24 RFU and 7691.61 RFU and 9382.76 RFU
SYPRO Orange signal ([2]; 39 °C): 7595.49 RFU and 7805.73 RFU and 9538.41 RFU
SYPRO Orange signal ([2]; 40 °C): 7144.31 RFU and 7745.3 RFU and 9326.61 RFU
SYPRO Orange signal ([2]; 41 °C): 7523.62 RFU and 8082.31 RFU and 10056.4 RFU
SYPRO Orange signal ([2]; 42 °C): 6553.14 RFU and 8330.03 RFU and 9625.31 RFU
SYPRO Orange signal ([2]; 43 °C): 6308.15 RFU and 8153.11 RFU and 9828.59 RFU
SYPRO Orange signal ([2]; 44 °C): 6367.9 RFU and 8052.38 RFU and 9686.43 RFU
SYPRO Orange signal ([2]; 45 °C): 6024.01 RFU and 8171.95 RFU and 9864.25 RFU
SYPRO Orange signal ([2]; 46 °C): 5879.53 RFU and 8246.28 RFU and 9525.18 RFU
SYPRO Orange signal ([2]; 47 °C): 5608.16 RFU and 7765.84 RFU and 9654.27 RFU
SYPRO Orange signal ([2]; 48 °C): 5852.78 RFU and 8189.7 RFU and 9797.46 RFU
SYPRO Orange signal ([2]; 49 °C): 5217.03 RFU and 8390.63 RFU and 10273.6 RFU
SYPRO Orange signal ([2]; 50 °C): 5184.36 RFU and 8235.09 RFU and 10294 RFU
SYPRO Orange signal ([2]; 51 °C): 5257.82 RFU and 7864.96 RFU and 10148 RFU
SYPRO Orange signal ([2]; 52 °C): 5420.42 RFU and 8591.09 RFU and 10383.3 RFU
SYPRO Orange signal ([2]; 54 °C): 5418.14 RFU and 8792.52 RFU and 10293.3 RFU
SYPRO Orange signal ([2]; 55 °C): 5495.99 RFU and 8870.15 RFU and 10549.4 RFU
SYPRO Orange signal ([2]; 56 °C): 6050.58 RFU and 9594.03 RFU and 11019.3 RFU
SYPRO Orange signal ([2]; 57 °C): 6826.55 RFU and 10116.3 RFU and 11658.4 RFU
SYPRO Orange signal ([2]; 58 °C): 7910.74 RFU and 10957.9 RFU and 12439.3 RFU
SYPRO Orange signal ([2]; 59 °C): 8986.83 RFU and 12265.2 RFU and 14132.6 RFU
SYPRO Orange signal ([2]; 60 °C): 11443.7 RFU and 14614.9 RFU and 16452.7 RFU
SYPRO Orange signal ([2]; 61 °C): 14902 RFU and 17741.5 RFU and 21041 RFU
SYPRO Orange signal ([2]; 62 °C): 22268 RFU and 25516.7 RFU and 29825 RFU
SYPRO Orange signal ([2]; 63 °C): 33484.1 RFU and 37584.1 RFU and 44091.5 RFU
SYPRO Orange signal ([2]; 64 °C): 51752.4 RFU and 56793 RFU and 66753.7 RFU
SYPRO Orange signal ([2]; 65 °C): 77812.5 RFU and 83318.4 RFU and 98699.8 RFU
SYPRO Orange signal ([2]; 66 °C): 109641 RFU and 115417 RFU and 136698 RFU
Tm (°C) with BXA ([2]; A(H1N1)pdm09 PAN E23K+I38T 2 μM, BXA 37 μM): 65.0 ± 0.1 °C and 65 °C
ΔTm (°C) ([2]; A(H1N1)pdm09 PAN E23K+I38T, DMSO vs BXA 37 μM): 13.0 ± 0.4 °C
SYPRO Orange signal ([2]; Panel A, E23K+I38T, 67 °C): 141451 RFU and 147203 RFU and 172603 RFU
SYPRO Orange signal ([2]; Panel A, E23K+I38T, 68 °C): 168529 RFU and 172839 RFU and 202976 RFU
SYPRO Orange signal ([2]; Panel A, E23K+I38T, 69 °C): 187743 RFU and 188730 RFU and 221880 RFU
SYPRO Orange signal ([2]; Panel A, E23K+I38T, 70 °C): 197721 RFU and 197558 RFU and 231373 RFU
SYPRO Orange signal ([2]; Panel A, E23K+I38T, 71 °C): 201057 RFU and 200198 RFU and 234259 RFU
SYPRO Orange signal ([2]; Panel A, E23K+I38T, 72 °C): 201492 RFU and 200752 RFU and 233432 RFU
SYPRO Orange signal ([2]; Panel A, E23K+I38T, 73 °C): 200985 RFU and 201438 RFU and 231795 RFU
SYPRO Orange signal ([2]; Panel A, E23K+I38T, 74 °C): 199039 RFU and 201234 RFU and 229243 RFU
SYPRO Orange signal ([2]; Panel A, E23K+I38T, 75 °C): 196836 RFU and 200470 RFU and 226040 RFU
SYPRO Orange signal ([2]; Panel A, E23K+I38T, 76 °C): 194350 RFU and 199581 RFU and 223044 RFU
SYPRO Orange signal ([2]; Panel A, E23K+I38T, 77 °C): 191850 RFU and 197962 RFU and 220114 RFU
SYPRO Orange signal ([2]; Panel A, E23K+I38T, 78 °C): 188492 RFU and 195716 RFU and 216789 RFU
SYPRO Orange signal ([2]; Panel A, E23K+I38T, 79 °C): 185031 RFU and 192976 RFU and 213095 RFU
SYPRO Orange signal ([2]; Panel A, E23K+I38T, 80 °C): 181329 RFU and 188975 RFU and 209818 RFU
SYPRO Orange signal ([2]; Panel A, E23K+I38T, 81 °C): 177076 RFU and 185295 RFU and 205852 RFU
SYPRO Orange signal ([2]; Panel A, E23K+I38T, 82 °C): 172443 RFU and 180849 RFU and 201702 RFU
SYPRO Orange signal ([2]; Panel A, E23K+I38T, 83 °C): 168545 RFU and 176621 RFU and 197901 RFU
SYPRO Orange signal ([2]; Panel A, E23K+I38T, 84 °C): 164747 RFU and 173366 RFU and 192683 RFU
SYPRO Orange signal ([2]; Panel A, E23K+I38T, 85 °C): 160714 RFU and 167572 RFU and 187865 RFU
SYPRO Orange signal ([2]; Panel A, E23K+I38T, 86 °C): 156527 RFU and 164357 RFU and 182900 RFU
SYPRO Orange signal ([2]; Panel A, E23K+I38T, 87 °C): 152514 RFU and 159370 RFU and 178211 RFU
SYPRO Orange signal ([2]; Panel A, E23K+I38T, 88 °C): 148577 RFU and 156075 RFU and 172520 RFU
SYPRO Orange signal ([2]; Panel A, E23K+I38T, 89 °C): 144780 RFU and 150636 RFU and 169202 RFU
SYPRO Orange signal ([2]; Panel A, E23K+I38T, 90 °C): 140567 RFU and 146858 RFU and 164661 RFU
SYPRO Orange signal ([2]; Panel A, E23K+I38T, 91 °C): 136367 RFU and 142372 RFU and 160897 RFU
SYPRO Orange signal ([2]; Panel A, E23K+I38T, 92 °C): 132795 RFU and 135894 RFU and 156502 RFU
SYPRO Orange signal ([2]; Panel A, E23K+I38T, 93 °C): 128384 RFU and 133334 RFU and 151288 RFU
SYPRO Orange signal ([2]; Panel A, E23K+I38T, 94 °C): 124727 RFU and 130587 RFU and 145672 RFU
SYPRO Orange signal ([2]; Panel A, E23K+I38T, 95 °C): 117959 RFU and 125850 RFU and 139484 RFU
SYPRO Orange signal ([2]; Panel A, E23K+I38T, 96 °C): 105632 RFU and 120516 RFU and 129322 RFU
SYPRO Orange signal ([2]; Panel A, E23K+I38T, 97 °C): 102902 RFU and 114416 RFU and 118292 RFU
SYPRO Orange signal ([2]; Panel A, E23K+I38T, 98 °C): 98344.9 RFU and 110434 RFU and 111915 RFU
SYPRO Orange signal ([2]; Panel A, E23K+I38T, 99 °C): 89718.7 RFU and 110586 RFU and 107689 RFU
